Measured values from several laboratories, pooled; numbers as filed in NIAID ChemDB.

All rows: target-level tests; species: HIV-1; target: Reverse transcriptase; measure: IC50

Blank or dashed fields: not listed here. ICn is the concentration giving n% inhibition. Neighbouring rows are from separate reports.

smiles,strain,changes,value
Cc1cc(C)nc(NC(=S)N[C@H](C)c2cccc3ccccc23)c1,,,40 µM
O=C(O[C@@H]1Cc2c(O)cc(O)cc2O[C@@H]1c1cc(O)c(O)c(O)c1)c1cc(O)c(O)c(O)c1,,,0.02 µM
O=C(/C=C/c1ccc(O)c(O)c1)O[C@@H]1CC(O)(C(=O)O)C[C@@H](OC(=O)/C=C/c2ccc(O)c(O)c2)C1O,LAI,,107 µM
Nc1nc2c(ncn2[C@@H]2C=C[C@H](OCP(=O)(O)OP(=O)(O)OP(=O)(O)O)C2)c(=O)[nH]1,,,1.5 µM
COc1cc2c(ccc3c4cc(OC)c(OC)cc4c[n+](C)c23)cc1O,,,22 µM
COC(=O)C1(O)CC(O)C(OC(=O)/C=C/c2ccc(O)c(O)c2)C(OC(=O)/C=C/c2ccc(O)c(O)c2)C1,,,94 µM
CC[C@H](C)[C@H](NC(=O)[C@H](Cc1ccccc1)C[C@@H](O)CN1C[C@H]2CCCC[C@H]2C[C@H]1C(=O)NC(C)(C)C)C(=O)NCc1nc2ccccc2[nH]1,,,100 µM
Nc1nc2c(ncn2[C@H]2CC[C@@H](COP(=O)(O)OP(=O)(O)OP(=O)(O)O)O2)c(=O)[nH]1,,,0.5 µM
Cc1cn([C@H]2C[C@H](F)[C@@H](COP(=O)(O)OP(=O)(O)OP(=O)(O)O)O2)c(=S)[nH]c1=O,,,0.175 µM
CCN(Cc1ccccc1)C(=O)C(F)(F)C(=O)[C@H](Cc1ccc(OCc2ccccc2)cc1)NC(=O)[C@@H](NC(=O)OCc1ccccc1)C(C)C,,,1.75 µM
Cc1ccc2c(nc(-c3c(F)cccc3F)n2Cc2c(F)cccc2F)c1C,,,>10 µM
Cc1cccc2sc(NC(=S)N[C@@H](C)c3cccc4ccccc34)nc12,,,>100 µM
COc1ccc2[nH]cc(CCN)c2c1,,,<8000 µM
CCCN(C)C(=O)Oc1nsnc1-c1c(Cl)cccc1Cl,,,0.29 µM
Nc1ncnc2c1ncn2CCOCP(=O)(O)O,,,>100 µM
Oc1cc(O)c2c(c1)O[C@H](c1ccc(O)c(O)c1)[C@H](O)C2,,,>10 µM
Cc1c(Sc2ccccc2)n(COCCO)c(=O)[nH]c1=O,,RT-V179D,~1 µM
Cc1cccc(S(=O)(=O)c2cccc(N)c2C#N)c1,,,4.5 µM
Fc1cccc(F)c1Cn1c(-c2c(F)cccc2F)nc2ccccc21,,,~10 µM
C[C@H](CNC(=S)Nc1ccccn1)C1CCCCC1,,,>100 µM
C#CC1(c2ccccc2)c2cc(Cl)ccc2NC(=O)N1C,,,0.043 µM
Nc1ncnc2c1ncn2CCOCP(=O)(O)OP(=O)(O)OP(=O)(O)O,,,5.7 µM
CC(C)=CCN1Cc2cccc3[nH]c(=S)n(c23)C[C@@H]1C,,,0.35 µM
O=C(/C=C/c1ccc(O)c(O)c1)O[C@@H]1C[C@](OC(=O)/C=C/c2ccc(O)c(O)c2)(C(=O)O)C[C@@H](O)[C@H]1O,LAI,,>97 µM
O=C(/C=C/c1ccc(O)c(O)c1)O[C@H]1[C@H](O)C[C@](O)(C(=O)O)C[C@H]1OC(=O)/C=C/c1ccc(O)c(O)c1,IIIB,,9 µg/mL
CCOCn1c([Se]c2ccccc2)c(CC)c(=O)[nH]c1=O,,,5.1 µM
CC(C)[C@H](NC(=O)OC(C)(C)C)C(=O)N[C@@H](Cc1ccc(OCc2ccccc2)cc1)C(=O)C(F)(F)C(=O)NCc1ccccc1,,,100 µM
N#Cc1c(N)cccc1S(=O)(=O)c1cccc(C(F)(F)F)c1,,,>18 µM
Cc1cccc2c1nc(CO)n2Cc1c(F)cccc1F,,,>10 µM
CC(C)(C)NC(=O)[C@@H]1C[C@@H]2CCCC[C@@H]2CN1CC(O)C[C@@H](Cc1ccccc1)C(=O)N[C@H]1CCCC[C@@H]1NC(=O)c1ccc2ccccc2n1,,,100 µM
Nc1ncnc2c1ncn2OCCOCP(=O)(O)OP(=O)(O)OP(=O)(O)O,,,0.66 µM
O=C(O)C1=C[C@@H](O)[C@@H](OC(=O)c2cc(O)c(O)c(O)c2)[C@H](OC(=O)c2cc(O)c(O)c(O)c2)C1,,,1.77 µM
Cc1cn([C@@H]2O[C@H](CO[Si](C)(C)C(C)(C)C)C3(OS(=O)(=O)C=C3N)[C@H]2O[Si](C)(C)C(C)(C)C)c(=O)n(C)c1=O,,RT-E138K,>100 µM
O=C(c1c(F)cccc1F)n1c(-c2c(F)cccc2F)nc2ccccc21,,,<10 µM
Nc1ncnc2c1ncn2[C@H]1CC[C@@H](COP(=O)(O)OP(=O)(O)OP(=O)(O)O)O1,,,0.6 µM
NCCc1c[nH]c2ccc(O)cc12,,,>8000 µM
Cc1cc(O)cc(S(=O)(=O)c2cccc(N)c2C#N)c1,,,0.04 µM
O=C(O)C1=CC(O)C(OC(=O)c2cc(O)c(O)c(O)c2)[C@H](O)C1,,,>333 µg/mL
C[C@@H]1O[C@@H](Oc2c(-c3ccc(O)c(O)c3)oc3cc(O)cc(O)c3c2=O)[C@H](O)[C@H](O)[C@H]1O,,,>500 µM
Nc1nc2c(ncn2CCOCP(=O)(O)O)c(=O)[nH]1,,,>100 µM
Cc1c(Cc2c(F)cccc2F)nc(SC2CCCC2)[nH]c1=O,,,300 µM
C/C=C/CSc1cc(NC(=S)c2ccsc2C)ccc1Cl,,RT-K103N,>100 µM
N#Cc1c(N)cccc1S(=O)(=O)c1cc(Cl)cc(Cl)c1,,,0.3 µM
Cc1occc1C(=S)Nc1ccc(Cl)c(/C=N/OC(C)(C)C)c1,,RT-E138K,8.5 µM
O=C(O[C@@H]1CC(O)(C(=O)O)C[C@@H](OC(=O)c2cc(O)c(O)c(O)c2)C1O)c1cc(O)c(O)c(O)c1,,,1.31 µM
Cc1cccc2c1nc(-c1cccc3ccccc13)n2Cc1c(F)cccc1F,,,>10 µM
Nc1nc(=O)n([C@H]2C=C[C@@H](COP(=O)(O)OP(=O)(O)OP(=O)(O)O)O2)cc1F,,,0.28 µM
Nc1ncnc2c1ncn2[C@H]1CC[C@@H](CO)O1,,,>1000 µM
CCOCn1c([Se]c2ccccc2)c(C)c(=O)[nH]c1=O,,,69.8 µM
Fc1cccc(F)c1Cn1c(-c2c(F)cccc2F)nc2ccc(Cl)cc21,,,<10 µM

Repeating the final 5 entries:

smiles	strain	changes	value
Cc1cccc2c1nc(-c1cccc3ccccc13)n2Cc1c(F)cccc1F			>10 µM
Nc1nc(=O)n([C@H]2C=C[C@@H](COP(=O)(O)OP(=O)(O)OP(=O)(O)O)O2)cc1F			0.28 µM
Nc1ncnc2c1ncn2[C@H]1CC[C@@H](CO)O1			>1000 µM
CCOCn1c([Se]c2ccccc2)c(C)c(=O)[nH]c1=O			69.8 µM
Fc1cccc(F)c1Cn1c(-c2c(F)cccc2F)nc2ccc(Cl)cc21			<10 µM